Earlier results as cited in PMC2642980 (Bioorganic & medicinal chemistry letters, 2008).

What was measured:
cowpox virus = conditions: cited from earlier work
vaccinia virus = conditions: plaque reduction assays; cited from earlier work

1-Beta-D-arabinofuranosyladenine [Vidarabine]
Fold more active than cidofovir against cowpox virus (cowpox virus): 3- to 5 fold | Fold more active than cidofovir against vaccinia virus (vaccinia virus): 3- to 5 fold
